Measured values taken from US11072575B1, “Method of preparing a cinnamyl alcohol retinoic acid ester with antioxidant and antibacterial activities” (priority 2020, dated 2021).

Test: DPPH radical scavenging activity assay
Conditions: 517 nm; for Absorbance Ai (sample solution + DPPH solution): 30 min
Text: In the DPPH molecule, due to the presence of multiple electron-withdrawing —NO2 and large π bonds of the benzene ring, nitrogen free radical is stabilized. Its methanol solution is purple and has a maximum absorption peak at 517 nm. After the addition of an antioxidant, DPPH captures an electron to be paired with the free electron, and the purple fades and turns into a yellow substance. The absorption at 517 nm disappears, and the degree of fading is quantitatively related to the number of electrons it captures. Based on this principle, a spectrophotometer is used to detect the change of the absorbance of the DPPH radical and the sample solution, and the ability of the sample to provide hydrogen atoms and scavenge free radicals can be measured. […] Vc (positive control), cinnamyl alcohol retinoic acid ester (sample), cinnamyl alcohol (control) and retinoic acid (control). The sample solution was subjected to gradient dilution with toluene, and three sets of controls were separately dissolved in a test tube with a certain amount of toluene to prepare the same concentration gradient as the sample. [table] […] Clearance calculation: Clearance Rate (%)=[1−(Ai−Aj)/Ao]*100%

CC1=C(/C=C/C(C)=C/C=C/C(C)=C/C(=O)OC/C=C/c2ccccc2)C(C)(C)CCC1 [Cinnamyl alcohol retinoic acid ester, (2E,4E,6E,8E)-cinnamyl 3,7-dimethyl-9-(2,6,6-trimethylcyclohex-1-en-1-yl)nona-2,4,6,8-tetraenoate]
Absorbance Aj (sample solution + toluene) (1.76 ppm): 0.049
Absorbance Ai (sample solution + DPPH solution) (1.76 ppm): 0.826
Absorbance Aj (sample solution + toluene) (8.80 ppm): 0.050
Absorbance Ai (sample solution + DPPH solution) (8.80 ppm): 0.788
Absorbance Aj (sample solution + toluene) (21.12 ppm): 0.044
Absorbance Ai (sample solution + DPPH solution) (21.12 ppm): 0.653
Absorbance Aj (sample solution + toluene) (42.24 ppm): 0.049
Absorbance Ai (sample solution + DPPH solution) (42.24 ppm): 0.567
Absorbance Aj (sample solution + toluene) (79.20 ppm): 0.052
Absorbance Ai (sample solution + DPPH solution) (79.20 ppm): 0.333
Absorbance Aj (sample solution + toluene) (112.64 ppm): 0.059
Absorbance Ai (sample solution + DPPH solution) (112.64 ppm): 0.279
Absorbance Aj (sample solution + toluene) (281.60 ppm): 0.047
Absorbance Ai (sample solution + DPPH solution) (281.60 ppm): 0.336
Absorbance Aj (sample solution + toluene) (492.80 ppm): 0.053
Absorbance Ai (sample solution + DPPH solution) (492.80 ppm): 0.204
Absorbance Aj (sample solution + toluene) (792.00 ppm): 0.055
Absorbance Ai (sample solution + DPPH solution) (792.00 ppm): 0.138
Absorbance Aj (sample solution + toluene) (915.20 ppm): 0.046
Absorbance Ai (sample solution + DPPH solution) (915.20 ppm): 0.087

OCC=Cc1ccccc1 [Cinnamyl alcohol, cinnamyl alcohol]
Absorbance Aj (sample solution + toluene) (1.76 ppm): 0.049
Absorbance Ai (sample solution + DPPH solution) (1.76 ppm): 0.881
Absorbance Aj (sample solution + toluene) (8.80 ppm): 0.048
Absorbance Ai (sample solution + DPPH solution) (8.80 ppm): 0.870
Absorbance Aj (sample solution + toluene) (21.12 ppm): 0.039
Absorbance Ai (sample solution + DPPH solution) (21.12 ppm): 0.773
Absorbance Aj (sample solution + toluene) (42.24 ppm): 0.045
Absorbance Ai (sample solution + DPPH solution) (42.24 ppm): 0.709
Absorbance Aj (sample solution + toluene) (79.20 ppm): 0.059
Absorbance Ai (sample solution + DPPH solution) (79.20 ppm): 0.614
Absorbance Aj (sample solution + toluene) (112.64 ppm): 0.054
Absorbance Ai (sample solution + DPPH solution) (112.64 ppm): 0.550
Absorbance Aj (sample solution + toluene) (281.60 ppm): 0.045
Absorbance Ai (sample solution + DPPH solution) (281.60 ppm): 0.409
Absorbance Aj (sample solution + toluene) (492.80 ppm): 0.047
Absorbance Ai (sample solution + DPPH solution) (492.80 ppm): 0.360
Absorbance Aj (sample solution + toluene) (792.00 ppm): 0.034
Absorbance Ai (sample solution + DPPH solution) (792.00 ppm): 0.270
Absorbance Aj (sample solution + toluene) (915.20 ppm): 0.039
Absorbance Ai (sample solution + DPPH solution) (915.20 ppm): 0.255

O=C1O[C@H]([C@@H](O)CO)C(O)=C1O [Vc]
Absorbance Aj (sample solution + toluene) (1.76 ppm): 0.068
Absorbance Ai (sample solution + DPPH solution) (1.76 ppm): 0.718
Absorbance Aj (sample solution + toluene) (8.80 ppm): 0.061
Absorbance Ai (sample solution + DPPH solution) (8.80 ppm): 0.624
Absorbance Aj (sample solution + toluene) (21.12 ppm): 0.050
Absorbance Ai (sample solution + DPPH solution) (21.12 ppm): 0.222
Absorbance Aj (sample solution + toluene) (42.24 ppm): 0.054
Absorbance Ai (sample solution + DPPH solution) (42.24 ppm): 0.142
Absorbance Aj (sample solution + toluene) (79.20 ppm): 0.069
Absorbance Ai (sample solution + DPPH solution) (79.20 ppm): 0.091
Absorbance Aj (sample solution + toluene) (112.64 ppm): 0.057
Absorbance Ai (sample solution + DPPH solution) (112.64 ppm): 0.078
Absorbance Aj (sample solution + toluene) (281.60 ppm): 0.062
Absorbance Ai (sample solution + DPPH solution) (281.60 ppm): 0.076
Absorbance Aj (sample solution + toluene) (492.80 ppm): 0.062
Absorbance Ai (sample solution + DPPH solution) (492.80 ppm): 0.070
Absorbance Aj (sample solution + toluene) (792.00 ppm): 0.066
Absorbance Ai (sample solution + DPPH solution) (792.00 ppm): 0.074
Absorbance Aj (sample solution + toluene) (915.20 ppm): 0.059
Absorbance Ai (sample solution + DPPH solution) (915.20 ppm): 0.065
